Non-standard residues stand in square brackets, D forms with d. Residues, ends and D or L forms follow the SMILES beside them.
How the values were obtained:
[1] = test system: Pseudomonas aeruginosa versus human red blood cells; type: cell-based; details: ratio of HC50 (µM, 18 h) over geometric mean MIC (µM)
[2] = test system: Acinetobacter baumannii versus human red blood cells; type: cell-based; details: ratio of HC50 (µM, 18 h) over geometric mean MIC (µM)

Structure (SMILES) | Pseudomonas aeruginosa T. I. (therapeutic index) [1] | Acinetobacter baumannii T. I. (therapeutic index) [2]
CSCC[C@@H](NC(=O)[C@@H](Cc1c[nH]c2ccccc12)NC(=O)[C@@H](CC(C)C)NC(=O)[C@@H](C)N)C(=O)N[C@@H](C(=O)N[C@H](CC(C)C)C(=O)N[C@H](CCCCN)C(=O)N[C@H](CCCCN)C(=O)N[C@H](CCCCN)C(=O)N[C@@H](C(=O)N[C@H](CC(C)C)C(=O)N[C@H](CCCCN)C(=O)N[C@H](C)C(=O)N[C@H](CCCCN)C(=O)N[C@H](C)C(=O)N[C@H](CCCCN)C(=O)N[C@H](C)C(=O)N[C@H](CC(C)C)C(=O)N[C@H](CC(N)=O)C(=O)N[C@H](C)C(=O)N[C@@H](C(=O)N[C@H](CC(C)C)C(=O)N[C@@H](C(=O)NCC(=O)N[C@H](C)C(=O)N[C@H](CC(N)=O)C(=O)N[C@H](C)C(N)=O)C(C)C)C(C)C)C(C)C)[C@H](C)O [D-Dermaseptin S4 L7K,A14K] (H-[dA][dL][dW][dM][dT][dL][dK][dK][dK][dV][dL][dK][dA][dK][dA][dK][dA][dL][dN][dA][dV][dL][dV]G[dA][dN][dA]-NH2) | 49 | 219
CSCC[C@@H](NC(=O)[C@@H](Cc1c[nH]c2ccccc12)NC(=O)[C@@H](CC(C)C)NC(=O)[C@@H](C)N)C(=O)N[C@@H](C(=O)N[C@H](CC(C)C)C(=O)N[C@H](CC(C)C)C(=O)N[C@H](CCCCN)C(=O)N[C@H](CCCCN)C(=O)N[C@@H](C(=O)N[C@H](CC(C)C)C(=O)N[C@H](CCCCN)C(=O)N[C@H](C)C(=O)N[C@H](C)C(=O)N[C@H](C)C(=O)N[C@H](CCCCN)C(=O)N[C@H](C)C(=O)N[C@H](CC(C)C)C(=O)N[C@H](CC(N)=O)C(=O)N[C@H](C)C(=O)N[C@@H](C(=O)N[C@H](CC(C)C)C(=O)N[C@@H](C(=O)NCC(=O)N[C@H](C)C(=O)N[C@H](CC(N)=O)C(=O)N[C@H](C)C(N)=O)C(C)C)C(C)C)C(C)C)[C@H](C)O [D-Dermaseptin S4] (H-[dA][dL][dW][dM][dT][dL][dL][dK][dK][dV][dL][dK][dA][dA][dA][dK][dA][dL][dN][dA][dV][dL][dV]G[dA][dN][dA]-NH2) | 0.05 | 0.3
CC[C@@H](C)[C@@H](NC(=O)CNC(=O)[C@@H](CCCNC(=N)N)NC(=O)[C@@H](Cc1ccccc1)NC(=O)[C@H](NC(=O)[C@@H](Cc1c[nH]cn1)NC(=O)[C@@H](Cc1c[nH]cn1)NC(=O)[C@@H](Cc1ccccc1)NC(=O)[C@H](N)Cc1ccccc1)[C@H](C)CC)C(=O)N[C@@H](C(=O)N[C@H](Cc1c[nH]cn1)C(=O)N[C@@H](C(=O)N[C@H](CCCCN)C(=O)N[C@H](CCCCN)C(=O)N[C@@H](C(=O)N[C@@H](C(=O)N[C@H](Cc1c[nH]cn1)C(=O)N[C@H](CCCNC(=N)N)C(=O)N[C@H](CC(C)C)C(=O)N[C@@H](C(=O)N[C@@H](C(=O)NCC(N)=O)[C@H](C)O)C(C)C)[C@H](C)CC)[C@H](C)O)C(C)C)C(C)C [D-Piscidin 1 G13K] (H-[dF][dF][dH][dH][dI][dF][dR]G[dI][dV][dH][dV][dK][dK][dT][dI][dH][dR][dL][dV][dT]G-NH2) | 0.3 | 1.3
CC[C@@H](C)[C@@H](NC(=O)[C@@H](Cc1c[nH]cn1)NC(=O)[C@@H](Cc1c[nH]cn1)NC(=O)[C@@H](Cc1ccccc1)NC(=O)[C@H](N)Cc1ccccc1)C(=O)N[C@H](Cc1ccccc1)C(=O)N[C@H](CCCNC(=N)N)C(=O)NCC(=O)N[C@H](CCCCN)C(=O)N[C@@H](C(=O)N[C@H](Cc1c[nH]cn1)C(=O)N[C@@H](C(=O)NCC(=O)N[C@H](CCCCN)C(=O)N[C@@H](C(=O)N[C@@H](C(=O)N[C@H](Cc1c[nH]cn1)C(=O)N[C@H](CCCNC(=N)N)C(=O)N[C@H](CC(C)C)C(=O)N[C@@H](C(=O)N[C@@H](C(=O)NCC(N)=O)[C@H](C)O)C(C)C)[C@H](C)CC)[C@H](C)O)C(C)C)C(C)C [D-Piscidin 1 I9K] (H-[dF][dF][dH][dH][dI][dF][dR]G[dK][dV][dH][dV]G[dK][dT][dI][dH][dR][dL][dV][dT]G-NH2) | 3.2 | 33
CC[C@@H](C)[C@@H](NC(=O)CNC(=O)[C@@H](CCCNC(=N)N)NC(=O)[C@@H](Cc1ccccc1)NC(=O)[C@H](NC(=O)[C@@H](Cc1c[nH]cn1)NC(=O)[C@@H](Cc1c[nH]cn1)NC(=O)[C@@H](Cc1ccccc1)NC(=O)[C@H](N)Cc1ccccc1)[C@H](C)CC)C(=O)N[C@@H](C(=O)N[C@H](Cc1c[nH]cn1)C(=O)N[C@H](CCCCN)C(=O)NCC(=O)N[C@H](CCCCN)C(=O)N[C@@H](C(=O)N[C@@H](C(=O)N[C@H](Cc1c[nH]cn1)C(=O)N[C@H](CCCNC(=N)N)C(=O)N[C@H](CC(C)C)C(=O)N[C@@H](C(=O)N[C@@H](C(=O)NCC(N)=O)[C@H](C)O)C(C)C)[C@H](C)CC)[C@H](C)O)C(C)C [D-Piscidin 1 V12K] (H-[dF][dF][dH][dH][dI][dF][dR]G[dI][dV][dH][dK]G[dK][dT][dI][dH][dR][dL][dV][dT]G-NH2) | 2.1 | 13
CC[C@@H](C)[C@@H](NC(=O)CNC(=O)[C@@H](CCCNC(=N)N)NC(=O)[C@@H](Cc1ccccc1)NC(=O)[C@H](NC(=O)[C@@H](Cc1c[nH]cn1)NC(=O)[C@@H](Cc1c[nH]cn1)NC(=O)[C@@H](Cc1ccccc1)NC(=O)[C@H](N)Cc1ccccc1)[C@H](C)CC)C(=O)N[C@@H](C(=O)N[C@H](Cc1c[nH]cn1)C(=O)N[C@@H](C(=O)NCC(=O)N[C@H](CCCCN)C(=O)N[C@@H](C(=O)N[C@@H](C(=O)N[C@H](Cc1c[nH]cn1)C(=O)N[C@H](CCCNC(=N)N)C(=O)N[C@H](CC(C)C)C(=O)N[C@@H](C(=O)N[C@@H](C(=O)NCC(N)=O)[C@H](C)O)C(C)C)[C@H](C)CC)[C@H](C)O)C(C)C)C(C)C [D-Piscidin 1] (H-[dF][dF][dH][dH][dI][dF][dR]G[dI][dV][dH][dV]G[dK][dT][dI][dH][dR][dL][dV][dT]G-NH2) | 0.1 | 0.6
